Reference: paper PMC9387928
For at least one entry, the source does not settle the construct or the ends of the probe. A weaker result is weaker than the reference pair of the same experiment. Tags and fusion partners may be left off the protein sequences shown.

Molecular target: T1, ZccR (MerR-type regulator) (Streptococcus mutans UA159) (UniProt Q8DRZ5)
T1 sequence (looked up): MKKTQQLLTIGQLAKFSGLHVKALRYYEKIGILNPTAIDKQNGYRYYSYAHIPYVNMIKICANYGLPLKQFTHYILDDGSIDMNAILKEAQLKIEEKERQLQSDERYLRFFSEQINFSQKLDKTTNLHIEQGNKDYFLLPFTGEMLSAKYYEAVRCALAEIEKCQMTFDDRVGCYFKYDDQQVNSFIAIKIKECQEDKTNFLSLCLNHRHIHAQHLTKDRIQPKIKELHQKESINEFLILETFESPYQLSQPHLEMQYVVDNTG
Test: EMSA
Conditions: 3 mM TPEN (Zn chelator), complex formation inhibited; 10 mM Tris, 50 mM KCl, 1 ug poly dI-dC, 1 mM DTT, 5% glycerol, pH 7.5; 20 fmol probe in 20 ul; 6% native PAGE at 4 C; binding temperature not stated; recombinant protein; residues 1-264; protein details: His-tag (pET30c); probe letters rebuilt from the primers and the genome

Question: Does “CACAAATAGCTTGACCTTCCCTTTAAGGTATAGTTTATAGTTAAACTATAACAAGGTTTGCTAAAAAATGCAATGATTTCTGTATTGGAAAGGAGCCAATCATGTCTAAAGGTGATAAACAAAAGAAAAGGCTTCAAAAAATGACTTGGCTTTCAATATG (double strand) [zccE-zccR intergenic region (IGR), 160 bp]” bind?
Answer: binds more weakly
